Measured values published in PMC6372279 (eLife, 2019).

Amino acid sequences for entries named in this document (tags omitted). Residues count along the entry.
UniProt P06213, 28-758 limits assumed: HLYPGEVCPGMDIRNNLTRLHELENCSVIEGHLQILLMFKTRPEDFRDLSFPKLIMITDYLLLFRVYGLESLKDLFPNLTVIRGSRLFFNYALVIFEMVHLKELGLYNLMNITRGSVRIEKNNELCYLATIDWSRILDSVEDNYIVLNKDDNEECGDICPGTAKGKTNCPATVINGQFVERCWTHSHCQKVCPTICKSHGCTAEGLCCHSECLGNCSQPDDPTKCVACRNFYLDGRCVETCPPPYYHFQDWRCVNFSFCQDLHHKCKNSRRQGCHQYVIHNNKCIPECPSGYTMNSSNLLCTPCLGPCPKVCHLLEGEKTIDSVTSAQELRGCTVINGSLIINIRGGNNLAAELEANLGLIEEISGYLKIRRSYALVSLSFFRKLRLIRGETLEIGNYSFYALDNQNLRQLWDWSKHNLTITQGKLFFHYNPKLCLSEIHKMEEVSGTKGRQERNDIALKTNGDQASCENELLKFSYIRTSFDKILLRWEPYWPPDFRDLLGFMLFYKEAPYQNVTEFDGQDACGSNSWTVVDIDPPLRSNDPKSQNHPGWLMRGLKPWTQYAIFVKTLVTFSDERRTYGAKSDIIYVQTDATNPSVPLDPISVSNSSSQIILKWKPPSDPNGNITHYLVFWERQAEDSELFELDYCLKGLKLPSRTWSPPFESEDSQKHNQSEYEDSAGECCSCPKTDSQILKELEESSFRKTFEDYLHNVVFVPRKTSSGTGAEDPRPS
UniProt P06213, 763-1382 partner limits assumed: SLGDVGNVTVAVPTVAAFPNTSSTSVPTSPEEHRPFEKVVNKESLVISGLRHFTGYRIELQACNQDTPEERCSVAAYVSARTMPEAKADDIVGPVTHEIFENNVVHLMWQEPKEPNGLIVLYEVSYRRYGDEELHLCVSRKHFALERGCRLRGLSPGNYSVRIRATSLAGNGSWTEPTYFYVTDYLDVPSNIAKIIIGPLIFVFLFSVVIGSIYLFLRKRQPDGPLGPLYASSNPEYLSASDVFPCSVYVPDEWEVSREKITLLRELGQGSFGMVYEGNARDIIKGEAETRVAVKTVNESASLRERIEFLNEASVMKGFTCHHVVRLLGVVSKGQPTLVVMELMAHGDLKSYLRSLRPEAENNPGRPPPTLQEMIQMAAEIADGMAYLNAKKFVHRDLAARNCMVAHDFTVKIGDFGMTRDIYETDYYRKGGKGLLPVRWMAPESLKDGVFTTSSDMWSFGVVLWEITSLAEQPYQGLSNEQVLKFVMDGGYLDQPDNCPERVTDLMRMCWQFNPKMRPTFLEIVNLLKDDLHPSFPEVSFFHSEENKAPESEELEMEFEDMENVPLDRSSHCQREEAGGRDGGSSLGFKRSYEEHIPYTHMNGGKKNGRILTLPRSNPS

Experiments:
human IR-B = human IR-B (Homo sapiens, UniProt P06213); assay: hIR-B autophosphorylation (Tyr1150/1151) HTRF assay in NIH 3T3 cells overexpressing human IR-B; assay type: cell-based; settings: compared to hIns
[1] = test system: STZ-induced hyperglycemic mice; assay: Reversal of STZ-induced hyperglycemia in mice; assay type: in vivo, mouse; settings: equivalent to 1 IU/kg body weight, before lowering, mean, n = 3

CC[C@H](C)[C@@H]1NC(=O)[C@H](Cc2ccc(O)cc2)NC(=O)[C@H](CO)NC(=O)[C@H](CC(N)=O)NC(=O)[C@@H]2CCCN2C(=O)[C@H]([C@@H](C)CC)NC(=O)[C@H](CC(C(=O)O)C(=O)O)NC(=O)[C@H](CO)NC(=O)CNC(=O)[C@@H](NC(=O)[C@H](CCCNC(=N)N)NC(=O)[C@H](Cc2ccc(O)cc2)NC(=O)[C@H](CCCCN)NC(=O)[C@@H]2C[C@@H](O)CN2C(=O)[C@@H](NC(=O)[C@H](CC(=O)O)NC(=O)[C@H](CO)NC(=O)[C@@H](N)CC(N)=O)[C@@H](C)O)CSSC[C@@H]2NC(=O)[C@@H](NC(=O)[C@H](Cc3c[nH]cn3)NC(=O)[C@H](CC(C(=O)O)C(=O)O)NC(=O)[C@@H](NC(=O)[C@@H](NC(=O)CN)C(C)C)C(C)C)C[Se][Se]C[C@H](NC(=O)[C@@H]3CCCN3C(=O)[C@H](CCCNC(=N)N)NC(=O)[C@H](Cc3c[nH]cn3)NC2=O)C(=O)N[C@@H](CO)C(=O)N[C@@H](CC(N)=O)C(=O)N[C@@H](C)C(=O)N[C@@H](CCC(=O)O)C(=O)N[C@@H](Cc2ccccc2)C(=O)N[C@@H](CCCCN)C(=O)N[C@@H](CCCCN)C(=O)N[C@@H](Cc2ccccc2)C(=O)N[C@H](C(N)=O)CSSC[C@@H](C(=O)N[C@@H](Cc2ccccc2)C(=O)O)NC(=O)[C@H](CC(C)C)NC(=O)[C@H](CC(=O)O)NC1=O
times less potent than hIns, hIR-B phosphorylation (Tyr1150/1151) (human IR-B): 10 times
Blood glucose, starting value [1]: 541.3 ± 52 mg/dL
